PubChem BioAssay AID504761 – Drosophila RNAi Screening Center, 2011

Screen: 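Fly genes whose silencing reduces dengue virus type 2 infection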 (primary screen)
Cells: D.Mel-2 cells from Drosophila
Knock-down reagent: long dsRNA against Drosophila genes
Conditions: infection with dengue virus type 2; dose and infection time not stated
Measured: 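Cells stained for dengue envelope protein and imaged; percent of infected cells per well on duplicate plates, ranked by infection, with stained nuclei counted for cell number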
Direction: infection score: higher = more virus-infected cells; cell count: higher = more cells in the well
Rule for the call: 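Very low infection ranking in both replicate wells (chance probability at most 0.065), then a retest showing infection dropped 1.5-fold or more at p below 0.05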
Calls: active = confirmed: knock-down lowers infection; inactive = not picked or not confirmed
In all, the deposit lists about 22,000 reagents; below is an unselected part of those that have a named target and a result. Over the whole deposit, 116 (0.52%) got an active call. 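Calls depend on retest data that are not deposited; infection was ranked per plate without normalising between plates; the unit of the infection score is not given.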 Raw values are not corrected between plates. Entries without a mark were called inactive. Not given: the amount of reagent, the time to read-out.

gene	DRSC id	infection score, replicate 1	infection score, replicate 2	cell count, replicate 1	cell count, replicate 2
lqf	DRSC11363	1.4 (active)	1.85	5702	5882
lqf	DRSC27882	13.7	2.43	3986	5605
dsd	DRSC13829	5.37	2.61	5732	4718
dsd	DRSC15850	2.58	3.62	6590	6487
Nca	DRSC11233	5.26	8.23	6697	6610
CG13426	DRSC06388	2.2	2.91	6217	6259
CG4666	DRSC18379	10.4	12.8	6285	6194
Cyt-c-d	DRSC03309	11.2	1.65	5864	6242
Cyt-c-d	DRSC30051	2.01	0.9	6082	5450
Arl6	DRSC07031	1.69	2.53	6632	6394
Cyp6t1	DRSC20564	1.18	4.42	5502	5456
Cyp6t1	DRSC24235	1.14	3.51	6252	6129
CG1927	DRSC08146	5.2	5.57	6590	6427
Scgalpha	DRSC03076	15.2	2.62	5933	6145
Scgalpha	DRSC29625	14.1	8.53	5403	4739
CG34337	DRSC18435	11.6	30.8	6398	4698
CG31788	DRSC01630	1.2	2.23	6088	5916
128up	DRSC05027	8.47	9.24	5428	5878
128up	DRSC24366	9.55	12.5	5139	4617
Dus2	DRSC19591	4.71	3.51	6111	6093
tsr	DRSC04718	8.76		1244	443
Pex11ab	DRSC07145	21.8	14.2	6813	3311
Tango6	DRSC02671	25.8	12	6358	6297
Tango6	DRSC29389		8.37	334	5200

Copied from the list:
Entry for tsr [DRSC04718] under “infection score, replicate 1”: 8.76
Entry of dsd [DRSC13829] under “infection score, replicate 1”: 5.37
Under “cell count, replicate 2”, Pex11ab [DRSC07145] is entered as 3311
Dus2 [DRSC19591], infection score, replicate 1 = 4.71
Cyt-c-d [DRSC03309], cell count, replicate 2 → 6242
Value for Nca [DRSC11233] in “infection score, replicate 1”: 5.26

The list goes on.
gene	DRSC id	infection score, replicate 1	infection score, replicate 2	cell count, replicate 1	cell count, replicate 2
Hem	DRSC11865	14.5	10.6	6170	6669
CG1637	DRSC18865	1.1	3.64	6356	5983
CG1637	DRSC19748	28.2	1.99	6240	6469
CG1637	DRSC19749	1.34	2.66	6404	6510
CG1637	DRSC29080	22.5	11.3	5420	6138
CG14100	DRSC10101	1.51	5.53	6706	6189
Sms	DRSC10408	0.45	2.7	6254	6290
CG1074	DRSC12143	1.94	2.43	6539	6706
CG1074	DRSC29045	12.9		2301	316
CG8036	DRSC16366	4.97	7.07	6202	2037
jef	DRSC06198	9.22	7.53	2722	6604
jef	DRSC24815	4.08	7.74	6293	6421
CG13744	DRSC06415	9.29	19.9	6586	6071
mRF1	DRSC02880	8.05	5.31	6164	6383
mRF1	DRSC29576	13.3	0.99	2616	507
r2d2	DRSC03014	4.72	3.8	6606	6579
r2d2	DRSC29562	18.2	14.4	4956	3899
Obp56d	DRSC06064	3.8	3.59	5871	6025
Sirt7	DRSC14294	1.72	1.8	5770	6437
Sirt7	DRSC26219	4.02	1.51	6390	5618
Cyp4c3	DRSC16631	2.15	3.6	5909	6172
Cyp4c3	DRSC23642	3.54	2.08	6272	6051
Tep5Psi	DRSC02183	4.87	3.27	6286	6521
Tep5Psi	DRSC02184	10.2	5.32	2171	6198
SPE	DRSC15135	8.55	6.58	6281	6325
SPE	DRSC25455	4.81	2.89	6044	5884
Sbf	DRSC16852	19.3	7.98	5408	5654
Sbf	DRSC27418	10.5	3.73	6119	6109
Mlc2	DRSC16741	9.19	4.63	6409	6455
Mlc2	DRSC28878	29	31	5337	4766
hfp	DRSC08731	18.1	18.8	3986	3396
hfp	DRSC08732	4.21	2.08	5650	6104
hfp	DRSC22408	3.73	5.9	6120	6815
hfp	DRSC25143	2.9	9.29	6170	4672
